How the values were obtained:
BWCoV-SW1-3CL = format: cell-based, Beluga whale coronavirus SW1
HCoV-HKU1-3CL = HCoV-HKU1-3CL (Human coronavirus HKU1, UniProt P0C6X2); format: cell-based
HCoV-NL63-3CL = HCoV-NL63-3CL (Human coronavirus NL63, UniProt P0C6X5); format: cell-based

Sequences of proteins named here, by UniProt entry; tags and fusion partners are left off. Residues count along the entry.
UniProt P0C6X2, 3335-3637 limits assumed: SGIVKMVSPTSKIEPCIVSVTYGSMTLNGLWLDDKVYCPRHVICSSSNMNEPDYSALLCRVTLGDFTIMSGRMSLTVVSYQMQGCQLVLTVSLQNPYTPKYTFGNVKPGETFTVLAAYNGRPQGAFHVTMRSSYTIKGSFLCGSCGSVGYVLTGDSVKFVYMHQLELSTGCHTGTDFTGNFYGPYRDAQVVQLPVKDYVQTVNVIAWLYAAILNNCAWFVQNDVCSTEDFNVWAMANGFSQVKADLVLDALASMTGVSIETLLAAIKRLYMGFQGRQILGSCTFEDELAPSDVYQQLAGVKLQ
UniProt P0C6X5, 2940-3242 limits assumed: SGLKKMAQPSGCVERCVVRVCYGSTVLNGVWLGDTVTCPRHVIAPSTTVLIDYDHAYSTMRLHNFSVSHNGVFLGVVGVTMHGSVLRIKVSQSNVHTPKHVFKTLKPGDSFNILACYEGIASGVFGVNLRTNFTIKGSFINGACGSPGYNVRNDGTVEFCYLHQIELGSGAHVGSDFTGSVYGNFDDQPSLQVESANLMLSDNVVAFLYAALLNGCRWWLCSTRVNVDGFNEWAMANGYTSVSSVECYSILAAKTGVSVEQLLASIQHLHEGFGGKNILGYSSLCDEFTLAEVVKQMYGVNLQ

O=C(Oc1ccc2ccc(=O)oc2c1)c1cccs1 [CB6762077]
Max relative growth (BWCoV-SW1-3CL): 1.621 | Max relative growth (HCoV-HKU1-3CL): 4.844 | Max relative growth (HCoV-NL63-3CL): 1.447

From publication PMC11790949, “A multiplex method for rapidly identifying viral protease inhibitors” (Molecular Systems Biology, 2025)
